{"sequences": {"note": "Chains of the proteins cited; added tags and fusions are not shown. Residues count along the entry.", "UniProt P01552, 28-266 limits assumed": "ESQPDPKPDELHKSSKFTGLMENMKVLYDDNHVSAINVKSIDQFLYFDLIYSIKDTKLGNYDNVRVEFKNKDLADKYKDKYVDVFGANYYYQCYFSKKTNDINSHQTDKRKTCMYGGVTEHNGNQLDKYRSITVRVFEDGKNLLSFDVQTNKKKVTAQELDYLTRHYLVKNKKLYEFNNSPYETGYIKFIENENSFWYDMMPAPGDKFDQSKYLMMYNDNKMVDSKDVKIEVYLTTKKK"}, "source": "patent US8691290B2", "about": "(priority 2006, dated 2014)", "target": "Staphylococcus aureus enterotoxin B (SEB) (Staphylococcus aureus, UniProt P01552)", "experiment": "Cytokine synthesis by PBL after I2-treated SEB (ELISA of IL-6 and IFN-γ)", "assay_type": "cell-based", "conditions": "SEB treated with I2, PBL", "data": [{"smiles": "II", "values": [{"measurement": "I2 concentration that inhibits superantigen activation of T-cell cytokine synthesis", "result": "> 25", "unit": "ppm"}]}]}
